This note sets out measurements from patent US11604190B2, “Chromogenic medium for the detection and identification of vancomycin resistant enterococci and method therefor” (BECTON DICKINSON AND COMPANY, priority 2006, dated 2023).

What all share (experiment): Streak plate colony color by hydrolysis of chromogenic substrate
What all share (assay type): cell-based

Series [1] deals with E. faecalis. The conditions noted are these: substrate 0.1 G/L.
Series [2] concerns E. casseliflavus and E. gallinarum. The note with it: Table 1 medium with inducer MGP 5.0 G/L; FIG. 2.
For series [3], the system named is E. faecium. The conditions noted are these: substrate 0.2 G/L.
Where [4] appears, read: Table 1 medium with inducer MGP 5.0 G/L, FIG. 2.

For `OC[C@H]1O[C@H](Oc2c[nH]c3ccc(Br)c(Cl)c23)[C@H](O)[C@@H](O)[C@@H]1O` [indolyl-alpha-D-glucopyranoside], the “colony color indicating hydrolysis by E. faecalis” value in series [1] (setting [4]) is on record as “green”; in series [1] (Table 1 medium, FIG. 1), “green”. The “colony color indicating hydrolysis of both substrates by E. casseliflavus and E. gallinarum” value in series [2] is reported as “blue”.
Consider indolyl-beta-D-galactopyranoside, for which, in series [2], the “colony color indicating hydrolysis of both substrates by E. casseliflavus and E. gallinarum” value is “blue”. Besides, the “colony color indicating hydrolysis by E. faecium” value is recorded as “mauve” in series [3] (setting [4]) and “mauve” in series [3] (Table 1 medium, FIG. 1).
